Anti-infective test results gathered from many reports (values: NIAID ChemDB through PubChem).

Shared fields: tests in culture; organism: HIV-2; cell line: MT-4; measure: EC50

Blank or dashed fields: not listed here.

| compound | strain | read by | result |
|---|---|---|---|
| S=c1nc[nH]c2nc(-c3ccccn3)c(-c3ccccn3)nc12 | ROD | cytopathic effect / MTT / absorbance | >115 µM |
| Cn1c(-c2ccc(F)c(F)c2)cc(N)nc1=O | ROD | MTT | >16.01 µM |
| Nc1cc2c(=O)c(C(=O)O)cn(N)c2cc1N1CCN(c2cccc(C(F)(F)F)c2)CC1 | ROD | MTT | >4.49 µM |
| COc1cc(/C=C/c2nc(NC(=O)Nc3ccc(Cl)cc3)c3ccccc3n2)cc(OC)c1OC | ROD | MTT | >4.97 µg/mL |
| CSCCC(NS(=O)(=O)c1ccc(C)cc1)c1nnc(SCc2ccc(F)cc2)o1 | ROD |  | >0.5 µg/mL |
| O=C(CCCN1C(=O)c2ccccc2C1=O)NC(=S)NC(CO)C(=O)O | ROD | MTT | >89.5 µM |
| CSCCC(NS(=O)(=O)c1ccc(Cl)cc1)c1nnc(SCc2ccccc2)o1 | ROD |  | >12.67 µg/mL |
| CCOC(=O)CNc1nc(NC(=O)Nc2ccccc2OC)nc(Oc2cc(=O)oc3ccccc23)n1 | ROD | MTT | >125 µg/mL |
| Cc1[nH]c(=S)n(Nc2cccc(Cl)c2)c1-c1cccc(C#N)c1 | ROD | cytopathic effect / MTT | >32.1 µg/mL |
| CCCNc1c(N=Nc2ccc(Cl)cc2)c(N)nc(=O)n1C | ROD | MTT | >100 µM |
| COc1cc(/C=C/c2nc(NC(=O)Nc3cccc([N+](=O)[O-])c3)c3ccccc3n2)cc(OC)c1OC | ROD | MTT | >1.17 µg/mL |
| Cn1c(Sc2cc[n+]([O-])cc2)c([N+](=O)[O-])c(=O)n(C)c1=O | ROD |  | >0.275 µg/mL |
| CCCCCCNc1c(N=Nc2ccc(Cl)cc2)c(N)nc(=O)n1C | ROD | MTT | >66.6 µM |
| CC1=C[C@H](Cn2cnc3c(NC4CC4)nc(N)nc32)C[C@@H]1CO | ROD | MTT | >100 µg/mL |
| O=C(CCCN1C(=O)c2ccccc2C1=O)NC(=S)NC(Cc1ncc[nH]1)C(=O)O | ROD | MTT | >47.26 µM |
| O=c1ccn([C@H]2C[C@H](F)[C@@H](CO)O2)c(=O)[nH]1 | LAV-2 | cytopathic effect | 0.16 µM |
| CSCCC(NS(=O)(=O)c1ccc(Cl)cc1)c1nnc(SCc2ccc(Cl)cc2)o1 | ROD |  | >11.88 µg/mL |
| Clc1ccc(-c2nc(-c3nnc(C45CCC6CC(CC4C6)C5)o3)cs2)cc1 | ROD | MTT | >125 µM |
| CCCn1c(Cl)c([N+](=O)[O-])c(=O)[nH]c1=O | ROD |  | >62.4 µg/mL |
| CCc1[nH]c(=S)n(Nc2cccc(Cl)c2)c1-c1ccccc1 | ROD | cytopathic effect / MTT | >38.96 µM |
| Cc1cccc(-c2nc(-c3nnc(C45CCC6CC(CC4C6)C5)o3)cs2)c1 | ROD | MTT | >125 µM |
| COc1ccc(CCNc2nc(NC(=O)Nc3ccccc3C)nc(Oc3cc(=O)oc4ccccc34)n2)cc1OC | ROD | MTT | >16.9 µg/mL |
| CCCn1c(Sc2ccncc2)c([N+](=O)[O-])c(=O)[nH]c1=O | ROD |  | >76.63 µg/mL |
| COc1cc(/C=C/c2nc(NC(=S)Nc3ccccc3Cl)c3ccccc3n2)cc(OC)c1OC | ROD | MTT | >3.85 µg/mL |
| CC(=O)Nn1cc(C(=O)O)c(=O)c2cc(N)c(N3CCN(c4ccccn4)CC3)cc21 | ROD | MTT | >295.9 µM |
| Brc1cccc(-c2nc(-c3nnc(C45CCC6CC(CC4C6)C5)o3)cs2)c1 | ROD | MTT | >125 µM |
| Nc1cc2c(=O)c(C(=O)O)cn(N)c2cc1N1CCN(c2ccccn2)CC1 | ROD | MTT | 1.33 µM |
| CC(C)C(NS(=O)(=O)c1ccc(Br)cc1)c1nnc(Nc2ccc(F)cc2)s1 | ROD | MTT | >10.08 µM |
| O=c1[nH]c(=S)c2nc(-c3ccccn3)c(-c3ccccn3)nc2[nH]1 | ROD | cytopathic effect / MTT / absorbance | >112 µM |
| O=C(CCCN1C(=O)c2ccccc2C1=O)NC(=S)NC(Cc1ccc(O)cc1)C(=O)O | ROD | MTT | >37.82 µM |
| O=S(=O)(O)OCC1OC2OC3C(COS(=O)(=O)O)OC(OC4C(COS(=O)(=O)O)OC(OC5C(COS(=O)(=O)O)OC(OC6C(COS(=O)(=O)O)OC(OC7C(COS(=O)(=O)O)OC(OC8C(COS(=O)(=O)O)OC(OC9C(COS(=O)(=O)O)OC(OC1C(OS(=O)(=O)O)C2OS(=O)(=O)O)C(OS(=O)(=O)O)C9OS(=O)(=O)O)C(OS(=O)(=O)O)C8OS(=O)(=O)O)C(OS(=O)(=O)O)C7OS(=O)(=O)O)C(OS(=O)(=O)O)C6OS(=O)(=O)O)C(OS(=O)(=O)O)C5OS(=O)(=O)O)C(OS(=O)(=O)O)C4OS(=O)(=O)O)C(OS(=O)(=O)O)C3OS(=O)(=O)O | ROD | cytopathic effect / MTT | 0.4 µg/mL |
| COc1cc(/C=C/c2nc(NC(=O)Nc3ccccc3C)c3ccccc3n2)cc(OC)c1OC | ROD | MTT | >1.89 µg/mL |
| Cc1c(C(=O)O)c(=O)c2cc(N)c(N3CCN(c4ccccn4)CC3)cc2n1C | ROD | MTT | >177 µM |
| COC(=O)/C=C1/[C@@H](O[Si](C)(C)C(C)(C)C)[C@H](n2cc(C)c(=O)[nH]c2=O)O[C@@H]1CO[Si](C)(C)C(C)(C)C | ROD | cytopathic effect / trypan blue | >2 µM |
| C=C(C)[C@@H]1CC[C@]2(C(=O)NCCCCCCCC(=O)N[C@@H](CC(C)C)[C@@H](O)CC(=O)O)CC[C@]3(C)[C@H](CC[C@@H]4[C@@]5(C)CC[C@H](O)C(C)(C)[C@@H]5CC[C@]43C)[C@@H]12 | EHO | cytopathic effect / MTT | >10 µM |
| Nn1cc(C(=O)O)c(=O)c2ccc(N3CCN(c4cccc(C(F)(F)F)c4)CC3)cc21 | ROD | MTT | >0.69 µM |
| Cc1ncn(Nc2cccc(Cl)c2)c1-c1ccccc1 | ROD | cytopathic effect / MTT | 1.65 µM |
| COc1ccc(Nc2nnc(C(Cc3ccccc3)NS(=O)(=O)c3ccc(C)cc3)s2)cc1 | ROD | MTT | >63.55 µM |
| COC(=O)C(CCSC)NC(=O)CCCN1C(=O)c2ccccc2C1=O | ROD | MTT | >18.85 µM |
| Cc1ccnc2c1NC(=O)c1cccnc1N2C1CC1 | ROD | MTT | >4 µM |
| Nn1cc(C(=O)O)c(=O)c2ccc(N3CCN(c4ccccn4)CC3)cc21 | ROD | MTT | 3.01 µM |
| COC(=O)C(CO)NC(=O)CCCN1C(=O)c2ccccc2C1=O | ROD | MTT | >96.11 µM |
| COc1ccc(Nc2nnc(C(NS(=O)(=O)c3ccc(C)cc3)C(C)C)s2)cc1 | ROD | MTT | >16.99 µM |
| CC1=C[C@H](Cn2cnc3c(N)ncnc32)C[C@@H]1CO | ROD | MTT | >100 µg/mL |
| CCOC(=O)CC1(O)[C@@H](CO[Si](C)(C)C(C)(C)C)O[C@@H](n2ccc(=O)[nH]c2=O)[C@@H]1O[Si](C)(C)C(C)(C)C | ROD | cytopathic effect / trypan blue | >10 µM |
| O=c1[nH]c(=S)[nH]c2nc(-c3ccccn3)c(-c3ccccn3)nc12 | ROD | cytopathic effect / MTT / absorbance | >79.23 µM |
| C=CCNc1c(N=Nc2ccc(Cl)cc2)c(N)nc(=O)n1C | ROD | MTT | >14.23 µM |
| Cc1cccc(Nn2cnc(C)c2-c2ccccc2)c1 | ROD | cytopathic effect / MTT | >27.04 µM |
| Cc1ccnc2c1NC(=O)c1cccnc1N2C1CC1 | ROD | MTT | >4 µM |
| Cc1cn([C@@H]2O[C@H](CO[Si](C)(C)C(C)(C)C)C3(O[C@H]3C(=O)NO)[C@H]2O[Si](C)(C)C(C)(C)C)c(=O)[nH]c1=O | ROD | cytopathic effect / trypan blue | >2 µM |
| NC(N)=NCCCC(NC(=S)NC(=O)CCCN1C(=O)c2ccccc2C1=O)C(=O)O | ROD | MTT | >12.6 µM |
| Clc1cccc(-c2nc(-c3nnc(C45CCC6CC(CC4C6)C5)o3)cs2)c1 | ROD | MTT | >125 µM |
| COC(=O)/C=C1/[C@@H](O[Si](C)(C)C(C)(C)C)[C@H](n2ccc(=O)[nH]c2=O)O[C@@H]1CO[Si](C)(C)C(C)(C)C | ROD | cytopathic effect / trypan blue | >2 µM |
| CC(NS(=O)(=O)c1ccc(Cl)cc1)c1nnc(SCc2ccc(F)cc2)o1 | ROD |  | >58.75 µg/mL |
| COc1ccc(Nc2nnc(C(NS(=O)(=O)c3ccc(Cl)cc3)C(C)C)s2)cc1 | ROD | MTT | >10.08 µM |
| Cc1ccnc2c1NC(=O)c1cccnc1N2C1CC1 | ROD | cytopathic effect / MTT / absorbance | >4 µM |
| Cc1[nH]c(=S)n(Nc2ccccc2)c1-c1ccccc1 | ROD | cytopathic effect / MTT | >191 µM |
| CCNc1c(N=Nc2ccc(-c3ccc(OC)c(OC)c3)cc2)c(N)nc(=O)n1C | ROD | MTT | >23.13 µM |
| C=Cn1cc(C(=O)O)c(=O)c2cc(N)c(N3CCN(c4ccccn4)CC3)cc21 | ROD | MTT | 0.038 µM |
| S=c1[nH]c(=S)c2nc(-c3ccccn3)c(-c3ccccn3)nc2[nH]1 | ROD | cytopathic effect / MTT / absorbance | >93.23 µM |
| CCN(CC)c1c(N=Nc2ccc(Cl)cc2)c(N)nc(=O)n1C | ROD | MTT | >100 µM |
| Nn1cc(C(=O)O)c(=O)c2cc(O)c(N3CCN(c4cccc(C(F)(F)F)c4)CC3)cc21 | ROD | MTT | >20.96 µM |
| Cc1cccc(Nn2c(-c3ccccc3)c(C(C)C)[nH]c2=S)c1 | ROD | cytopathic effect / MTT | >42.63 µM |
| COc1ccc(-c2ccc(N=Nc3c(N)nc(=O)n(C)c3N(C)C)cc2)cc1OC | ROD | MTT | >10.42 µM |
| [N-]=[N+]=N[C@H]1C[C@H](n2cc(Cl)c(=O)[nH]c2=O)O[C@@H]1CO | LAV-2 | cytopathic effect | 0.45 µM |
| CSCCC(NS(=O)(=O)c1ccc(Cl)cc1)c1nnc(SCc2ccc(Br)cc2)o1 | ROD |  | >12.3 µg/mL |
| CCOC(=O)CNc1nc(Nc2ccc3ccccc3c2)nc(Oc2cc(=O)oc3ccccc23)n1 | ROD | MTT | >46.53 µg/mL |
| Cn1c(Sc2ccccc2)c([N+](=O)[O-])c(=O)n(C)c1=O | ROD |  | >81.2 µg/mL |
| CSCCC(NS(=O)(=O)c1ccc(C)cc1)c1nnc(SCc2ccccc2)o1 | ROD |  | >30.48 µg/mL |
| CCc1c(Sc2ccccc2)n(COCc2ccccc2)c(=O)[nH]c1=O | EHO | cytopathic effect / MTT | >30 µM |
| COc1cc(/C=C/c2nc(NC(=O)Nc3ccccc3)c3ccccc3n2)cc(OC)c1OC | ROD | MTT | >2.13 µg/mL |
| COc1ccc(NC(=S)Nc2nc(NCCc3ccc(OC)c(OC)c3)nc(Oc3cc(=O)oc4ccccc34)n2)cc1 | ROD | MTT | >56.45 µg/mL |
| CCCn1c(Sc2cc[n+]([O-])cc2)c([N+](=O)[O-])c(=O)[nH]c1=O | ROD |  | >0.313 µg/mL |

Repeating the final 9 entries:

compound,strain,read by,result
[N-]=[N+]=N[C@H]1C[C@H](n2cc(Cl)c(=O)[nH]c2=O)O[C@@H]1CO,LAV-2,cytopathic effect,0.45 µM
CSCCC(NS(=O)(=O)c1ccc(Cl)cc1)c1nnc(SCc2ccc(Br)cc2)o1,ROD,,>12.3 µg/mL
CCOC(=O)CNc1nc(Nc2ccc3ccccc3c2)nc(Oc2cc(=O)oc3ccccc23)n1,ROD,MTT,>46.53 µg/mL
Cn1c(Sc2ccccc2)c([N+](=O)[O-])c(=O)n(C)c1=O,ROD,,>81.2 µg/mL
CSCCC(NS(=O)(=O)c1ccc(C)cc1)c1nnc(SCc2ccccc2)o1,ROD,,>30.48 µg/mL
CCc1c(Sc2ccccc2)n(COCc2ccccc2)c(=O)[nH]c1=O,EHO,cytopathic effect / MTT,>30 µM
COc1cc(/C=C/c2nc(NC(=O)Nc3ccccc3)c3ccccc3n2)cc(OC)c1OC,ROD,MTT,>2.13 µg/mL
COc1ccc(NC(=S)Nc2nc(NCCc3ccc(OC)c(OC)c3)nc(Oc3cc(=O)oc4ccccc34)n2)cc1,ROD,MTT,>56.45 µg/mL
CCCn1c(Sc2cc[n+]([O-])cc2)c([N+](=O)[O-])c(=O)[nH]c1=O,ROD,,>0.313 µg/mL

ECn is the concentration giving n% inhibition of infection, replication or growth. Conditions beyond the fields shown may differ between rows.